# In paper PMC7527780:
# Test system: O=C(O)CC(O)(CC(=O)O)C(=O)O
# Experiment: purified protein
# Settings: pH 8.0; 37.0 °C
substance,measurement,value
AcnA (M. tuberculosis aconitase) (Mycobacterium tuberculosis H37Rv),Km,3.3 ± 0.2 mM
